Each structure is given as a SMILES string. This is a selection; strong and weak results do not stand in their true shares. Calls of active or inactive are those of the source. Cut-off read from the data, not from the text of the source: active = inhibition above about 13% (passing the limit was not always enough); inactive = the rest.

Protein sequences, listed by entry. Tags and fused reporters are not part of them.
UniProt P0A9M0, whole entry, looked up: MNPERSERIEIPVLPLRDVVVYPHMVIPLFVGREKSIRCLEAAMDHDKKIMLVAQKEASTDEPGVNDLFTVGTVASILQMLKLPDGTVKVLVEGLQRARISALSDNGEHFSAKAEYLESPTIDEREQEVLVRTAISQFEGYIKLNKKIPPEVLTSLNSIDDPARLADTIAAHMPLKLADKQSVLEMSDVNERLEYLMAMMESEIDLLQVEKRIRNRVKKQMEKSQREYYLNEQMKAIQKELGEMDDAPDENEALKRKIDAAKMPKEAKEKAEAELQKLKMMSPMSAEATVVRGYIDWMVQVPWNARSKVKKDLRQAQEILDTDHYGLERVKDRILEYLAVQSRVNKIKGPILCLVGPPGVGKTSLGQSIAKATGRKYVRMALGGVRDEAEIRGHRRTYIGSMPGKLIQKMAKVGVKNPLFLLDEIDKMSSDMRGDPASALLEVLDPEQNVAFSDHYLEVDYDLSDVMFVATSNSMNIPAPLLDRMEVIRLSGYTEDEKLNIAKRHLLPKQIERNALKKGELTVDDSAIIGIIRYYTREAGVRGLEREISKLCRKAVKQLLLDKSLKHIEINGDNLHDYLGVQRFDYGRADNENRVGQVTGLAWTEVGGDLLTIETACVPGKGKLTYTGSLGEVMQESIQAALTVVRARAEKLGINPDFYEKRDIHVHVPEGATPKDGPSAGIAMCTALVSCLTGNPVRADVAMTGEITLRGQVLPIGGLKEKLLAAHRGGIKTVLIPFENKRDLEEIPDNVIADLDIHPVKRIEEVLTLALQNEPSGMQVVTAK

This experiment concerns the target Lon protease (Escherichia coli (strain K12)) (UniProt P0A9M0). As to the kind of experiment: inhibitors of E. coli Lon protease, primary screen, biochemical, fluorescence polarization (AID 602123).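 Note: 0% = enzyme with probe and DMSO and 100% = no enzyme.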 The following applies: purified E. coli Lon protease, at 7.94 µM, active compounds read high.
A word on the inhibition: it is the drop in the measured response relative to a control, in per cent. With `Cc1ccc(C(=O)OC2CN3CCC2CC3)cc1` (stereo unspecified), the inhibition was inactive: 2.52%.
Consider `Cc1nn(-c2ccccc2)c2c1P(=O)(N1CCOCC1)N(C)C(c1ccccc1)=N2` (stereo unspecified), for which the inhibition is inactive: -21.1%.
As for `CN(C(=O)Cc1ccc(Cl)c(Cl)c1)[C@H]1CC[C@@]2(CCCO2)C[C@@H]1N1CCCC1`, the inhibition is inactive: -2.19%.
The same measure for `CN(C)C(=O)c1cc([N+](=O)[O-])cc2c1-c1c(cc([N+](=O)[O-])cc1[N+](=O)[O-])C2=O`: inactive: 11%; for `O=[N+]([O-])c1ccc2c(c1)nnn2O`: inactive: 1.16%.
The same measure for `CN(C(=O)Cc1ccccc1)[C@@H]1CC[C@]2(CCCO2)C[C@H]1N1CCCC1`: inactive: -4.98%.
`CCOP1(=S)c2c(C)nn(CCC#N)c2N=C(c2ccc(F)cc2)N1C` (stereo unspecified): the inhibition is inactive: -11.7%.
The figure for `N#CCCN(C(=O)COC(=O)C(O)(c1ccccc1)c1ccccc1)c1ccc(F)cc1` is inactive: -3.35%; for `NC(=O)Nc1ccc([As](=O)(O)O)cc1` it is inactive: -20.4%; for `Nc1ccccc1[As](=O)(O)c1ccccc1` it is inactive: -2.84%.
The same measure for `O=C(O)COc1ccc([As](=O)(O)O)cc1[N+](=O)[O-]`: inactive: 3.17%; for `CS(=O)(=O)c1cc([N+](=O)[O-])c2no[n+]([O-])c2c1`: inactive: 13.2%.
The same measure for `O=P(Nc1nccs1)(c1ccccc1)c1nc2ccccc2s1` (stereo unspecified): inactive: -4.05%; for `O=P(Nc1nccs1)(Oc1ccccc1)Oc1ccccc1`: inactive: -7.04%.
`CCOP1(=S)c2c(C)nn(CCC#N)c2N=C(c2ccccc2F)N1C` (stereo unspecified): the inhibition is inactive: -9.09%.
The figure for `CCOP(=O)(Nc1cccc2ccccc12)OCC` is inactive: 5.43%; for `COc1cc(C2NCCC3(OCCO3)C2(C)C)cc(OC)c1OC` (stereo unspecified) it is inactive: -1.35%.
`CCCOP(=S)(Nc1nc(N)cc(=O)[nH]1)OCCC`: the inhibition is inactive: 3.27%.
Regarding `Cc1ccc(NCCc2c([N+](=O)[O-])cc([N+](=O)[O-])cc2[N+](=O)[O-])cc1`, the inhibition was inactive: 3.01%.
`O=[As](O)(c1cccc(O)c1)c1cccc(O)c1`: the inhibition is inactive: -7.15%.
The same measure for `Cc1cccc(OCC(=O)OC2CN3CCC2CC3)c1` (stereo unspecified): inactive: 1.85%; for `CS(=O)(=O)c1ccc(Cl)c(NC(=O)COC(=O)C(O)(c2ccccc2)c2ccccc2)c1`: inactive: -2.18%.
The same measure for `COc1cc(C(=O)NCC2(N3CCOCC3)CCCCC2)cc(Cl)c1OC(C)C`: inactive: -7.91%; for `O=[As](O)(O)c1cccnc1`: inactive: 3.86%; for `O=C(OC1CN2CCC1CC2)c1ccc(Cl)cc1` (stereo unspecified): inactive: 9.33%.
The same measure for `CC(=O)Nc1ccc(Oc2c([N+](=O)[O-])cc([N+](=O)[O-])cc2[N+](=O)[O-])cc1`: inactive: -6.83%; for `CC(=O)Nc1ccc([As](=O)(O)O)c(O)c1`: inactive: 8.16%.
With `COC(=O)C1(C)COP(=O)(NCc2ccccc2)OC1` (stereo unspecified), the inhibition was inactive: -9.41%.
Turning to `N#C/C(=C\c1ccc(N(CCBr)CCBr)cc1)C(N)=O`, the inhibition is inactive: -55.7%.
For the molecule `CC(=O)c1ccc(N2CC2c2ccncc2)cc1` (stereo unspecified), the inhibition is inactive: -16.3%.
For the molecule `C[C@@H]1C=CCP(=O)(Oc2ccccc2)O1` (stereo partly specified), the inhibition was inactive: 0.77%.
As for `C[C@H]1OP(=O)(Oc2ccccc2)C[C@@H]2O[C@@H]21` (stereo partly specified), the inhibition was inactive: 0.67%.
As for `Cc1ccccc1CN(C)C(=O)COC(=O)C(O)(c1ccccc1)c1ccccc1`, the inhibition is inactive: 5.41%.
For the molecule `CCc1cc(O)c([N+](=O)[O-])c(C)c1[N+](=O)[O-]`, the inhibition was inactive: -8.04%.
For `CC(C)(C)C(=O)NC(Sc1ccccc1)C(Cl)(Cl)Cl` (stereo unspecified), the inhibition is inactive: 0.07%.
Consider `CCOc1ccc(C2=NCC(CBr)S2)cc1` (stereo unspecified), for which the inhibition was inactive: -4.52%.
For the molecule `O=P1(Nc2nc3ccc(Cl)cc3s2)COc2ccccc2O1` (stereo unspecified), the inhibition was inactive: -5.88%.
Regarding `CN(C)C(=O)Oc1noc2ccccc12`, the inhibition is inactive: -3.44%.
Consider `O=c1c2cc([N+](=O)[O-])ccc2[nH]c2c([N+](=O)[O-])cc([N+](=O)[O-])cc12`, for which the inhibition was inactive: -7.66%.
For the molecule `Cc1ccccc1OP(=O)(Nc1ccccn1)Oc1ccccc1C`, the inhibition was inactive: -0.44%.
As for `CC(NC(=O)COC(=O)C(O)(c1ccccc1)c1ccccc1)c1ccccc1` (stereo unspecified), the inhibition is inactive: -2.54%.
The figure for `Cc1ccc(OP(=O)(Nc2ccccn2)Oc2ccc(C)cc2)cc1` is inactive: 5.85%; for `CC(=O)NC(SC(=S)N(CC(C)C)CC(C)C)C(Cl)(Cl)Cl` (stereo unspecified) it is inactive: -2.94%; for `COC(=O)c1cc2c(s1)N=C(c1ccccc1)N(C)P2(=O)N1CCOCC1` (stereo unspecified) it is inactive: -3.04%.
Take `CCC(=O)N1C2C3N(C(=O)CC)C1C1N(C(=O)CC)C(C(N1C(=O)CC)N3C(=O)CC)N2C(=O)CC`: the inhibition was inactive: -6.42%.
The same measure for `O=C(OC1CN2CCC1CC2)c1ccccc1` (stereo unspecified): inactive: 0.61%; for `O=P1(N(CCCl)CCCl)OCCC2CCCCN21` (stereo unspecified): inactive: 3.54%; for `CCNC(=S)/N=C(\N)N[N+](=O)[O-]`: inactive: -0.05%.
As to `O=C(NC1CCS(=O)(=O)C1)NP(=S)(Oc1ccccc1)Oc1ccccc1` (stereo unspecified), the inhibition is inactive: 3.31%.
The same measure for `Cc1ccc(NP(=O)(Oc2cccc(C)c2)Oc2cccc(C)c2)nc1`: inactive: -3.62%.
On to `c1ccc(-c2nn[nH]n2)c(-c2nn[nH]n2)c1`, for which the inhibition is inactive: 4.96%.
For the molecule `Nc1ccc([As](=O)(O)c2ccc([N+](=O)[O-])cc2)cc1`, the inhibition was inactive: 3.45%.
As for `C(Cc1nn[nH]n1)Cc1nn[nH]n1`, the inhibition is inactive: -8.29%.
`O=C(OC1CN2CCC1CC2)c1cccc(Cl)c1` (stereo unspecified): the inhibition is inactive: -0.19%.
As for `O=[N+]([O-])c1ccc(O)c(/C=N/Nc2ccc([N+](=O)[O-])cc2[N+](=O)[O-])c1`, the inhibition is inactive: -11.8%.
Take `O=[N+]([O-])c1ncn(CCn2cnc([N+](=O)[O-])n2)n1`: the inhibition is inactive: -8.5%.
Turning to `CC(=O)NC(SC(=S)N(C)C)C(Cl)(Cl)Cl` (stereo unspecified), the inhibition was inactive: 4.95%.
The same measure for `O=[As](O)(c1ccccc1)c1ccc(O)cc1`: inactive: -8.44%; for `C[C@H]1OP(=O)(Oc2ccccc2)[C@H](O)[C@H](O)[C@H]1N=[N+]=[N-]` (stereo partly specified): inactive: 0.24%.
For `O=P(Nc1nc2ccccc2s1)(c1ccccc1)c1ccccc1`, the inhibition was inactive: -5.89%.
The same measure for `Nc1ccc(CCCCOc2ccccc2)cc1`: inactive: -3.67%; for `COc1ccc(N)c([N+](=O)[O-])c1[N+](=O)[O-]`: inactive: -10.4%.
For `O=P(Nc1ccccn1)(c1ccc(Br)cc1)c1ccc(Br)cc1`, the inhibition is inactive: 6.8%.
The same measure for `CN(C)C1(CNC(=O)c2ccc(Cl)c(S(N)(=O)=O)c2)CCCCC1`: inactive: -6.02%; for `c1nnnn1CCn1cnnn1`: inactive: 1.36%; for `CC(C)C(=O)NC(Sc1ccccc1)C(Cl)(Cl)Cl` (stereo unspecified): inactive: -5.68%.
For the molecule `O=P(Nc1nccs1)(c1ccccc1)c1ccccc1`, the inhibition is inactive: -6.54%.
`CN(C)C(=O)OCCc1n(C)cc[n+]1C`: the inhibition is inactive: 7.31%.
`CC(C)=N/N=C(\N)N[N+](=O)[O-]`: the inhibition was inactive: -8.73%.
On to `CC(C)c1nc(Nc2ccccc2)n(P(=O)(N(C)C)N(C)C)n1`, for which the inhibition was inactive: -16.5%.
Regarding `c1cc(-c2nn[nH]n2)ccc1-c1nn[nH]n1`, the inhibition is inactive: -8.9%.
`CC1CCN(C(=O)Oc2c(Cl)cc(Cl)c3cccnc23)CC1`: the inhibition is inactive: -3.53%.
The same measure for `C[N+]1=C2C=CC=CC=C2SC12C([N+](=O)[O-])=CC([N+](=O)[O-])=C[C-]2[N+](=O)[O-]` (stereo unspecified): inactive: 3.33%.
For the molecule `Nc1ccc([As](=O)(O)c2ccc(N)cc2)cc1`, the inhibition is inactive: 8.12%.
On to `CCN(/C(=N/P(=O)(N1CCOCC1)N1CCOCC1)N1CCOCC1)c1ccc(OC)cc1`, for which the inhibition was inactive: 7.64%.
The figure for `O=[N+]([O-])c1cccc2n[nH]nc12` is inactive: 0.79%; for `CC(=O)N1C2C3N(C(C)=O)C1C1N(C(C)=O)C(C(N1C(C)=O)N3C(C)=O)N2C(C)=O` it is inactive: -7.4%.
Consider `CCc1nc2c(n1)c1c(non1O)c1c2no[n+]1[O-]`, for which the inhibition was inactive: -1.71%.
Take `O=[N+]([O-])c1cc([N+](=O)[O-])c(CCNc2ccccc2)c([N+](=O)[O-])c1`: the inhibition was inactive: 1.88%.
As to `Cc1ccc(NP(=O)(Oc2ccccc2)Oc2ccccc2)nc1`, the inhibition is inactive: -1.46%.
`COc1ccc(C2=NCC(CBr)S2)cc1` (stereo unspecified): the inhibition was inactive: 11.8%.
For `O=[N+]([O-])c1cccc(NC2=NCC(CBr)S2)c1` (stereo unspecified), the inhibition is inactive: 2.5%.
In the case of `COC(=O)C1(C)COP(=O)(Nc2ccccc2)OC1` (stereo unspecified), the inhibition was inactive: -14.3%.
As to `O=C(O)CNc1ccc([As](=O)(O)O)cc1`, the inhibition is inactive: -5.25%.
As for `CC(C)(C)C(=O)NC(Sc1ccncn1)C(Cl)(Cl)Cl` (stereo unspecified), the inhibition is inactive: -16.9%.
As to `O=[N+]([O-])c1ncn(CCn2ncnc2[N+](=O)[O-])n1`, the inhibition is inactive: 5.49%.
As to `O=C(Nc1cc([As](=O)(O)O)ccc1O)c1ccccc1`, the inhibition is inactive: -0.58%.
On to `O=P1(N(CCCl)CCCl)OCCCS1` (stereo unspecified), for which the inhibition was inactive: -4.61%.
Consider `CCN(N=Nc1nonc1N)c1nonc1N`, for which the inhibition was inactive: -12.9%.
The figure for `Nc1cccc2ccc([As](=O)(O)O)cc12` is inactive: 11.2%; for `Cc1ccc(NP(=O)(Oc2ccccc2F)Oc2ccccc2F)nc1` it is inactive: 2.28%; for `CN(C(=O)Cc1ccc(Cl)c(Cl)c1)[C@H]1CCCC[C@@H]1N1CCCC1` it is inactive: 7.23%.
On to `CCOP(=O)(Nc1ccccc1)OCC`, for which the inhibition was inactive: 2.42%.
As for `Cc1cc(SC(NC(=O)c2ccc(F)cc2)C(Cl)(Cl)Cl)ncn1` (stereo unspecified), the inhibition was inactive: -9.27%.
Take `CCCC1OP(N)(=O)OCC1CC` (stereo unspecified): the inhibition was inactive: 1.79%.
With `O=C(O)c1ccccc1[As](=O)(O)O`, the inhibition is inactive: 6.44%.
For `CC(=O)Nc1ccc([As](=O)(O)O)cc1`, the inhibition was inactive: -10.2%.
The figure for `CN(C)P(=O)(N(C)C)n1c(Nc2ccccc2)nnc1-c1ccccc1` is inactive: -0.6%.
`O=P(Nc1nc2ccc(Cl)cc2s1)(c1ccccc1)c1ccccc1`: the inhibition was inactive: 0.45%.
`O=[N+]([O-])C1C(O)C(O)C([N+](=O)[O-])C(O)C1O` (stereo unspecified): the inhibition is inactive: 0.3%.
Consider `CC(C)CC(=O)NC(Sc1ccc(Cl)cc1)C(Cl)(Cl)Cl` (stereo unspecified), for which the inhibition was inactive: -5.36%.
With `Nc1cc(N)c2nonc2c1[N+](=O)[O-]`, the inhibition was inactive: 1.27%.
The same measure for `O=C(NC(Sc1ccncn1)C(Cl)(Cl)Cl)c1ccccc1` (stereo unspecified): inactive: -9.35%; for `Oc1ccccc1CNc1ccccn1`: inactive: -0.18%.
Consider `Cc1ccc(OP(=O)(Nc2nccs2)Oc2ccc(C)cc2)cc1`, for which the inhibition is inactive: 15.2%.
In the case of `COc1ccccc1OP(=O)(Nc1ccc(C)cn1)Oc1ccccc1OC`, the inhibition is inactive: -4.27%.
On to `Clc1ccc(Cl)c(NC2=NCC(CBr)S2)c1` (stereo unspecified), for which the inhibition is inactive: 4.87%.
`CN1CCCC(OC(=O)C(c2ccccc2)c2ccccc2)C1` (stereo unspecified): the inhibition is inactive: -3.66%.
The figure for `NC(=O)c1cc([N+](=O)[O-])cc([N+](=O)[O-])c1N` is inactive: -6.25%; for `Cc1ccc(N/C(=N/P(=O)(N2CCOCC2)N2CCOCC2)N2CCOCC2)cc1` it is inactive: 12%; for `CN(C(=O)Cc1ccc(Cl)c(Cl)c1)[C@H]1CCCC[C@H]1N1CCCC1` it is inactive: -12.8%.
